Measurements as given in publication PMC8236845.

Target: binding of recombinant, trimeric SARS-CoV-2 spike protein to recombinant human ACE2 (Severe acute respiratory syndrome coronavirus 2, UniProt P0DTC2, K986P/R682G/R683S/R685S/V987P)
Parameters: species or system SARS-CoV-2 / human
Conditions: read-out: EC50 (corrected)

Avermectin B1
EC50: 18 µM
